Laboratory results from the supplement of paper PMC9931576.
Human monoclonal antibodies against the spike receptor-binding domain (heavy:light variable regions). IC50 against pseudoviruses bearing the spike of naturally observed variants; lower = stronger; >10 µg/ml means not reached at the top dose. No active / inactive call. The stated detection limit is 0.0005 µg/ml; values near or below 0.001 µg/ml lie at the floor of the assay.

B1: BD58-0445 (protein)
chain 1: EVQLVESGGGLVQPGGSLRLSCAASGFTFSSYEMNWVRQAPGKGLEWVSYISSSGSTIYYADSVKGRFTISRDNAKNSLYLQMNSLRAEDTAVYYCASSSGPHNYNYGMDVWGQGTTVTVSS
chain 2: QSVLTQPPSASGTPGQRVTISCSGSSSNIGSNYVYWYQQLPGTAPKLLIYRNNQRPSGVPDRFSGSKSGTSASLAISGLRSEDEADYYCAAWDDSLSGLVFGGGTKLTVL
B2: BD58-0467 (protein)
chain 1: EAQLVESGGGVVRPGGSLRLSCAGSGFTFDDYGMSWVRQAPGKGLEWVSGINWNGGSTGYADSVKGRFTISRDNAKNSLYLQMNSLRAEDTALYHCASVDYYGSGDDASDIWGQGTMVTVSS
chain 2: EIVLTQSPATLSLSPGERATLSCRASQSVSSYLAWYQQKPGQAPRLLIYDAFNRATGIPARFSGSGSGTDFTLTISSLEPEDFAVYYCQQRSNWPYTFGQGTKLEIK
B3: BD58-0468 (protein)
chain 1: EVQLVESGGGVVQPGGSLRLSCAASGFTFDDFAMHWVRQAPGKGLEWVSLISGDGGRTDYADSVKGRFTISRDNSKNSLYLQMNSLRIEDTALYYCAKARIPYSPYHYDTDVWGQGTTVTVSS
chain 2: DIQMTQSPSSLSASVGDRVTITCQASPDISDYLNWYQLKPGKAPKLLIYDASNLETGVPSRFSGSGSGTDFTFTISSLQPEDIATYYCQQYDNLPLTFGQGTRLEIK
B4: BD58-0469 (protein)
chain 1: EVQLVESGGGLVKPGGSLRLSCAASGFTFSSYTMNWVRQAPGKGLEWVSSISGSRSYIFYADSVKGRFTISRDNAKNSLYLQMNSLRAEDTAVYYCARVRARDTATDYWGQGTLVTVSS
chain 2: QPVLTQPPSASASLGASVTLTCTLSSGYSNYEVDWYQQRPGKGPRFVMRVGTGGIVGSKGDDIPDRFSVLGSGLNRYLTIKNIQEEDESDYHCGADHGSGSNFVWVFGGGTKLTVL
B5: BD58-0475 (protein)
chain 1: QVQLQESGPGLVKPSQTLSLTCTVSGGSISSGVYYWSWIRQHPGKGLEWIGYIYYSGSAYYNPSLKSRITISVDTSKNQFSLKLSSVTAADTAVYYCARDDDSNGRVDYWGQGTLVTVSS
chain 2: QSAPTQPASVSGSPGQSITISCTGTNSDIGGYNFVSWYQQHPGKAPKLMIYDVSNRPSGVSNRFSGSKSGNTASLTISGLQAEDEADYYCSSYTSSSTRVFGGGTKLTVL
B6: BD58-0482 (protein)
chain 1: QVTLRESGPALVKPTQTLTLTCTFSGFSLSTSGMCVSWIRQPPGKALEWLGLIHWDDDKYYNTSLKTRLTISKDTSKNQVVLIMTNMDPVDTATYYCARIPAGSSSWFFDYWGQGTLVTVSS
chain 2: SYELTQPPSVSVSPGQTARITCSGDALPNQYAYWYQQKPGQAPVLVIFKDSERPSGIPERFSGSSSGTTVTLTISGVQAEDEADYYCQSTDNSATVLFGGGTKLTVL
B7: BD56-281 (protein)
chain 1: QVQLQESGPGLVKPSETLSLTCIVSGGSISSYYWSWIRQPPGKGLEWIGYIYYSGSTNYNPSLKSRVTISVDTPKNQFSLKLSSVTAADTAVYYCATTDLYASSMYFDNWGQGTLVTVSS
chain 2: SYELTQPPSVSVSPGQTARITCSGDALPIQYAYWYQQKPGQAPVLVIYKDSERPSGVPERFSGSSSGTTVTLTISGVQAEDEADYYCQSADRSDTPVVFGGGTKLTVL
B8: BD58-0497 (protein)
chain 1: QVQLVQSGAEVKKPGASVKVSCKASGYTFTSYDINWVRQATGQGLEWMGWMNPNSGDTGHAQKFQGRVTMTRNTSISTAYMELSSLRSEDTAVYYCARGLGVDYYDDSRGYADYWGQGTLVTVSS
chain 2: QSALTQPRSVSGSPGQSVTISCTGTSSDAGAYNYVSWYQQHPGKAPKLIIYDISKRPSGVPDRFSGSKSGNTASLTISGLQAEDEADYYCCSYGGNYVFGSGTKVTVL
B9: BD58-0498 (protein)
chain 1: EVQLVQSGAEVKKPGESLKISCKDSGNTFTSDWIGWVRQMPGKGLEWMGIIYPDDSDTRYSPSFQGQVTMSVDKSISTAYLQWSSLKASDTAIYYCARHRAPHRIFSGVLDVWGQGTTVTVSS
chain 2: DIQMTQSPSSLSASVRDRVTITCQASQDISNSLNWYQQKPGKAPRLLIYDASILETGVPSRFSGSGSGTDFTLTISSLQLEDVATYYCQHYVSLPFTFGPGTKVDIK
B10: BD58-0506 (protein)
chain 1: EVQLVESGGGLVKPGGSLRLSCAASEFTFFSYQMDWVRQAPGKGLEWVSSISSGSSYIYYADSVKGRFTISRDDAKNSLYLQMHSLRAEDTAVYYCARDSPRGYLDLVAGYGMDVWGQGTTVTVSS
chain 2: EIVLTQSPATLSLSPGERATLSCRASQNVSSFLAWYQQKPGQPPRLLIYDASNRATGIPARFSGSGSGTDFTLTISTLEPEDFALYYCQQRSNWPPFSFGQGTKLEIK

Columns and labels:
Experiment in all cases: pseudovirus neutralization IC50; higher = weaker neutralization
[1] = target: SARS-CoV-2 Omicron BA.1 spike pseudovirus
Method: (§1)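 Single-round VSV luciferase pseudovirus mixed with antibody dilutions for 1 h and put on Huh-7 cells for about a day; IC50 from the dose curve.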

[2] = target: SARS-CoV-2 Omicron BA.2 spike pseudovirus
Method: as §1

[3] = target: SARS-CoV-2 Omicron BA.2.75 spike pseudovirus
Method: as §1

[4] = target: SARS-CoV-2 Omicron BA.2.75.2 spike pseudovirus
Method: as §1

[5] = target: SARS-CoV-2 Omicron BA.5 spike pseudovirus
Method: as §1

[6] = target: SARS-CoV-2 Omicron BM.1.1.1 spike pseudovirus
Method: as §1

[7] = target: SARS-CoV-2 Omicron BQ.1.1 spike pseudovirus
Method: as §1

[8] = target: SARS-CoV-2 Omicron BR.2 spike pseudovirus
Method: as §1

[9] = target: SARS-CoV-2 Omicron CA.1 spike pseudovirus
Method: as §1

[10] = target: SARS-CoV-2 Omicron XBB spike pseudovirus
Method: as §1

[11] = target: SARS-CoV-2 early D614G spike pseudovirus
Method: as §1

Row | Binder | pseudovirus neutralization IC50 [1] | pseudovirus neutralization IC50 [2] | pseudovirus neutralization IC50 [3] | pseudovirus neutralization IC50 [4] | pseudovirus neutralization IC50 [5] | pseudovirus neutralization IC50 [6] | pseudovirus neutralization IC50 [7] | pseudovirus neutralization IC50 [8] | pseudovirus neutralization IC50 [9] | pseudovirus neutralization IC50 [10] | pseudovirus neutralization IC50 [11]
1 | B1 | 0.171 mg/L | 0.0573 mg/L | > 10 mg/L | > 10 mg/L | > 10 mg/L | > 10 mg/L | > 10 mg/L | > 10 mg/L | > 10 mg/L | > 10 mg/L | > 10 mg/L
2 | B2 | 0.185 mg/L | 0.00456 mg/L | 0.895 mg/L | > 10 mg/L | 0.00309 mg/L | > 10 mg/L | 0.04 mg/L | > 10 mg/L | > 10 mg/L | > 10 mg/L | > 10 mg/L
3 | B3 | 0.00191 mg/L | 0.00117 mg/L | > 10 mg/L | > 10 mg/L | > 10 mg/L | > 10 mg/L | > 10 mg/L | > 10 mg/L | > 10 mg/L | > 10 mg/L | > 10 mg/L
4 | B4 | 0.00573 mg/L | 0.0271 mg/L | 0.0141 mg/L | > 10 mg/L | > 10 mg/L | > 10 mg/L | > 10 mg/L | > 10 mg/L | > 10 mg/L | > 10 mg/L | > 10 mg/L
5 | B5 | > 10 mg/L | 0.0475 mg/L | > 10 mg/L | > 10 mg/L | 0.0127 mg/L | > 10 mg/L | > 10 mg/L | > 10 mg/L | > 10 mg/L | > 10 mg/L | > 10 mg/L
6 | B6 | 0.00246 mg/L | 0.129 mg/L | 0.0147 mg/L | 0.0442 mg/L | 0.0392 mg/L | 0.0135 mg/L | 0.0963 mg/L | 0.0187 mg/L | 0.0257 mg/L | > 10 mg/L | > 10 mg/L
7 | B7 | 0.000836 mg/L | 0.00258 mg/L | 0.00709 mg/L | 0.00254 mg/L | 0.00357 mg/L | 0.00283 mg/L | 0.0121 mg/L | 0.00199 mg/L | 0.0023 mg/L | > 10 mg/L | > 10 mg/L
8 | B8 | 0.118 mg/L | 0.177 mg/L | 0.328 mg/L | 0.219 mg/L | 0.193 mg/L | 0.405 mg/L | 0.326 mg/L | 0.208 mg/L | 0.216 mg/L | 0.16 mg/L | > 10 mg/L
9 | B9 | > 10 mg/L | 0.00218 mg/L | > 10 mg/L | > 10 mg/L | > 10 mg/L | > 10 mg/L | > 10 mg/L | > 10 mg/L | > 10 mg/L | > 10 mg/L | > 10 mg/L
10 | B10 | 0.0023 mg/L | 0.00374 mg/L | > 10 mg/L | > 10 mg/L | > 10 mg/L | > 10 mg/L | > 10 mg/L | > 10 mg/L | > 10 mg/L | > 10 mg/L | > 10 mg/L
